Measurements taken from patent US12509503B2, “Pan-neuraminidase inhibiting antibodies” (Washington University, priority 2019, dated 2025).

Tested on: influenza B NA
Format: binding, influenza B virus

Row | Molecule | binding to influenza B NA in ELISA
1 | 1G04: human anti-NA monoclonal antibody expressed as IgG1; heavy chain variable region SEQ ID NO: 40, light chain variable region SEQ ID NO: 41 (antibody, listed as Homo sapiens, V domains shown, IgG1 constant regions) VH: EVQLVESGGRVVRPGGSLRLSCAASGFTFDDYGMSWVRQAPGKGLEFVSGLNWNGDITAFTDSVKGRFTISRDNAKSSLYLQMNSLRADDTAFYYCARVRTWGEYTTREEPIHSWYFDLWGRGTLVTVSS VL: DIQLTQSPSFLSASVGDRVTITCRASQDISSFLAWYQQKPGNAPKVLIYAASLLQSGVPSRFSGSGSGTDFTLTISSLQPEDFATYYCQQLNSYPLFTFGPGTKVDIK | weak binding
2 | 1G01: human anti-NA monoclonal antibody expressed as IgG1; heavy chain variable region SEQ ID NO: 44, light chain variable region SEQ ID NO: 45 (antibody, listed as Homo sapiens, V domains shown, IgG1 constant regions) VH: EVQLVESGGRALRPGGSLRLSCAASGFKFDDYAMSWVRQVPGKGLEFVSGLNWNGDITAYTDSVKGRFTVSRDNAKNSLYLHINSPKPEDTALYYCARTSSWGDYTRGPEPKITWYFDLWGRGTLVTVSS VL: DIQLTQSPSFLSASVGDRITITCRASQGIDGYLAWYQQRPGKAPNLLIYAASLLQSGVPSRFSGSGYGTEFTLTISSLQPEDFATYYCQHLDSYPLFTFGPGTKVDIK | binding activity
